Compound potency records, mixed from different reports. Data source: NIAID ChemDB in PubChem.

All rows: growth or infection tests; species: Mycobacterium tuberculosis

Inhibition is in % at the dose shown (toxicity tests: loss of growth or viability).

smiles	strain	tested at	endpoint	method	cells	value
CC(CNC1CCCCCCC1)NCCC(c1ccccc1)c1ccccc1			MIC			12.5 µM
Clc1ccccc1CCNCCNCCCCc1ccccc1			MIC			25 µM
CCCCCCCCCCCCCCCCCC(=O)N(C)c1ccc(N(C)C(=O)CCCCCCCCCCCCCCCCC)cc1	H37Rv		MIC			>100 µg/mL
NC[C@H]1O[C@H](O[C@H]2[C@H](O)[C@@H](O[C@H]3O[C@H](CO)[C@@H](O)[C@H](N)[C@H]3O)[C@H](N)C[C@@H]2N)[C@H](O)[C@@H](O)[C@@H]1O	A4B (amikacin-resistant)		MIC			4 µg/mL
CC(C)(COC(=O)C(c1ccccc1)c1ccccc1)CN1CCOCC1.I	H37Rv		MIC			>100 µg/mL
CCOC(=O)Nc1cc2[nH]c(=O)c(-c3ccccc3)nc2c(N)n1	H37Rv		EC50			>12.5 µg/mL
O=C(O)/C=C1\OC(=O)c2ccccc21	H37Rv		MIC			>100 µg/mL
CC1(O)Oc2c(cc(C(C)(C)C)cc2C(C)(C)C)C1=O	H37Rv		MIC bound	BACTEC		>12.5 µg/mL
Nc1ccc(S(=O)O)cc1	H37Rv		MIC			>100 µg/mL
S=C(Nc1ccc(Cl)cc1)c1ccccn1	H37Rv		MIC	resazurin	VERO	0.78 µg/mL
CCCCCC(=O)c1ccc(Cl)cc1	H37Rv		MIC			>100 µg/mL
CC(C)O/N=C/c1cc(NC(=S)OC(C)C)ccc1Cl	H37Rv		MIC bound	BACTEC		>12.5 µg/mL
Cc1cc(Nc2ccc(Cl)cc2S(=O)(=O)O)c2c3c1nc(=O)/c(=C(\O)c1ccccc1)c=3c1ccccc1c2=O.N	H37Rv		MIC			50 µg/mL
CCOC(=O)Nc1cc(SC(=N)N)c([N+](=O)[O-])c(N)n1	H37Rv		EC50			<12.5 µg/mL
CC1(C)[C@H]2CC[C@@H](CNCCNC(c3ccccc3)c3ccccc3)[C@@H]1C2			MIC			25 µM
C=CCn1c(C23CC4CC(CC(C4)C2)C3)n[nH]c1=S	H37Rv		MIC bound	BACTEC		>12.5 µg/mL
CCOc1ccccc1CNCCNC1Cc2ccccc2C1			MIC			50 µM
COc1ccc2ccccc2c1/C=C(\C)C(=O)O	H37Rv		MIC			100 µg/mL
Clc1ccccc1CCNCCNCCCCc1ccccc1			MIC			25 µM
O=C(O)c1cc(C(=O)O)cc([N+](=O)[O-])c1	H37Rv		MIC			>100 µg/mL
COc1cc(CC2C(=O)OCC2C2(c3ccc4c(c3)OCO4)SCCCS2)cc(OC)c1OC	H37Rv		MIC bound	BACTEC		>12.5 µg/mL
CC(Cc1c[nH]c2ccccc12)NCCNCc1ccco1			MIC			50 µM
NCC(=O)N[C@H](CO)C(=O)O	H37Rv	12.8 µg/mL	inhibition	BACTEC		15%
Cc1cc(C)c(CNC(=O)c2ccccc2)c(C)c1	H37Rv		MIC			100 µg/mL
CCOC(=O)Nc1cc(N[C@@H](C)[C@H](C)c2ccccc2)c([N+](=O)[O-])c(N)n1	H37Rv	12.5 µg/mL	inhibition			12%
CN(C)N=Nc1cn([C@@H]2O[C@H](CO)[C@@H](O)[C@H]2O)c(=O)[nH]c1=O	H37Rv		MIC bound	BACTEC		>6.25 µg/mL
CO[C@H]1/C=C/O[C@@]2(C)Oc3c(C)c(O)c4c(O)c(c(/C=N/N5CCN(C/C=C/c6ccccc6)CC5)c(O)c4c3C2=O)NC(=O)/C(C)=C\C=C\[C@H](C)[C@H](O)[C@@H](C)[C@@H](O)[C@@H](C)[C@H](OC(C)=O)[C@@H]1C	33 (rifampin-resistant)		MIC			0.1 µg/mL
Cc1nnc2n1N=C(CC(=O)c1ccc(O)cc1O)CN2N	H37Rv		MIC bound	BACTEC		>12.5 µg/mL
O=C(O)c1ccccc1C1OC(=O)c2ccccc21	H37Rv		MIC			100 µg/mL
CC(CNCCc1ccccc1F)NC1CCCCCCC1			MIC			50 µM
O=C(c1ccc(Br)cc1)c1ccc(Br)cc1	H37Rv		MIC			100 µg/mL
CC(=O)NNc1nc(C)c(C(=O)C=Cc2ccc(Cl)c(Cl)c2)s1	H37Rv	6.25 µg/mL	inhibition	resazurin		26%
CCC(=O)N1CN(C(=O)CC)CN(C(=O)CC)C1	H37Rv		MIC			>100 µg/mL
C[C@@H]1[C@@H](NCCNC[C@@H]2CC[C@H]3C[C@@H]2C3(C)C)C[C@H]2C[C@@H]1C2(C)C			MIC			6.25 µM
Cc1cc(=O)c(C(=O)O)c(C)n1-c1ccccc1	H37Rv		MIC bound	BACTEC		>12.5 µg/mL
c1ccc(C(CCNCCNC2CCCCCCC2)c2ccccc2)cc1			MIC			6.25 µM
CCOc1ccc(/C=C/C(=O)c2sc(NNC(C)=O)nc2C)cc1	H37Rv		MIC bound	resazurin		>6.25 µg/mL
N#CC(c1ccccc1)c1ccccc1	H37Rv		MIC			>100 µg/mL
CCOC(=O)Nc1cc(NCc2ccc(S(N)(=O)=O)cc2)c([N+](=O)[O-])c(N)n1	H37Rv		EC50			>12.5 µg/mL
Fc1ccccc1CCNCCNCCC(c1ccccc1)c1ccccc1			MIC			50 µM
O=S(=O)(O)OCCCCCCCCCC[n+]1ccccc1	H37Rv		MIC			>100 µg/mL
COc1ccc(CNC(=O)C2C(=O)C(=O)N(Cc3ccc(OC)c(OC)c3)C2=O)cc1OC	H37Rv		MIC bound	resazurin		>6.25 µg/mL
OCc1ccccc1Br	H37Rv		MIC			>100 µg/mL
Cn1cc(/C=C/C(=O)c2ccccc2[N+](=O)[O-])c2ccccc21	H37Rv	6.25 µg/mL	inhibition	BACTEC		-1%
CCOC(=O)Nc1cc(NCC(O)CN)c([N+](=O)[O-])c(NC(=O)OCC)n1	H37Rv		EC50			>12.5 µg/mL
O=C1CSC2=NC3=C(COC/C3=C/c3ccc(F)cc3)C(c3ccc(F)cc3)N12	H37Rv	12.5 µg/mL	inhibition	BACTEC		27%
CO[C@H]1/C=C/O[C@@]2(C)Oc3c(C)c(O)c4c(=O)c(c5oc6cc(N7CCN(C(C)C)CC7)cc(=O)c6nc5c4c3=C2O)NC(=O)/C(C)=C\C=C\[C@H](C)[C@H](O)[C@@H](C)[C@@H](O)[C@@H](C)[C@H](OC(C)=O)[C@@H]1C	3113 (rifampin-sensitive)		MBC			0.1 µg/mL
CC(=O)Nc1ccc(SSc2ccc(NC(C)=O)cc2)cc1	H37Rv		MIC			>100 µg/mL
CO[C@@H]1/C=C\C=C(/C)C(=O)NC2=CC(=O)C(N)=C(C[C@@H](C)C[C@@H](OC)[C@@H](O)[C@H](C)/C=C(\C)[C@H]1OC(N)=O)C2=O	H37Rv	12.5 µg/mL	inhibition	BACTEC		16%
CCCCCC(=O)c1ccccc1	H37Rv		MIC			>100 µg/mL
COC(=O)C[C@]1(C(=O)OC)[C@@H](C(=O)OC)C(C(=O)OC)N(C(C)=O)N1C	H37Rv		MIC bound	BACTEC		>12.5 µg/mL
CC(C)CC(C)NCCNCCC(c1ccccc1)c1ccccc1			MIC			6.25 µM
COc1c(-c2ccccc2)[nH]c(=O)c(C#N)c1-c1ccccc1	H37Rv		MIC			>100 µg/mL
Cn1c2ccccc2n2c(=O)c(-c3ccc(O)cc3)nnc12	H37Rv		MIC bound	resazurin		>6.25 µg/mL
CCCCCCCCCCCCCCCCCCNCCNC(C)CCc1ccccc1			MIC			50 µM
O=C1NC2(c3ccccc3)NC(=O)NC2(c2ccccc2)N1	H37Rv		MIC bound	BACTEC		>12.5 µg/mL
CCC(CC)NCCNC[C@]1(C)CCC[C@]2(C)c3ccc(C(C)C)cc3CC[C@@H]12			MIC			25 µM
CCc1cccc(CC)c1Nc1nc2c(s1)C(=O)c1ccccc1C2=O	H37Rv		MIC bound	BACTEC		≤12.5 µg/mL
Nc1cccc2c(Cl)nccc12	H37Rv		MIC			25 µg/mL
CCOC(=O)CN/N=C(\N)CSS(=O)(=O)O	H37Rv	12.5 µg/mL	inhibition	BACTEC		43%
O=C1CSC(=S)N1	H37Rv		MIC			>100 µg/mL

ECn: concentration that inhibits the pathogen or its effect by n%. An empty or dashed field is not shown. Lines come from different laboratories, so protocols vary. MIC bound: limit read from a one-dose screen.